Patent publication US9206463B2, “Method of testing a disinfectant or antibiotic using phenanthridium derivatives” (Montana State University, priority 2006, dated 2015)

Columns and labels:
Format in all cases: cell-based
[1] = tested on: Serratia marcescens; settings: after 5 minutes
[2] = tested on: Salmonella typhimurium; settings: after 5 minutes
[3] = tested on: 8 bacterial species; settings: for staining of dead cells (dye uptake): dead cells from all species examined, data not shown

SMILES | colour of live cells stained with SYTO9/EMA [1] | colour of live cells stained with SYTO9/EMA [2] | staining of dead cells (dye uptake) [3] | penetration of live cells (staining) ([3]; live cells, combined with SYTO9, 50 μM)
CC[n+]1c(-c2ccccc2)c2cc(N=[N+]=[N-])ccc2c2ccc(N)cc21.[Br-] [EMA] | appeared green after 5 minutes | appeared green after 5 minutes | efficiently stained red | –
CC[N+](C)(CC)CCC[n+]1c(-c2ccccc2)c2cc(N=[N+]=[N-])ccc2c2ccc(N)cc21.[Cl-].[Cl-] [PMA] | – | – | efficiently stained red | did not penetrate live cells in any of the species examined
